Structures are written as SMILES. Calls of active or inactive are those of the source. The rule behind the calls is not given here.

Experimental findings from ChEMBL document CHEMBL4316619 (Bioorg Med Chem Lett, 2019) are described below.

The experiment relates to unidentified influenza virus. The experiment can be described thus: Inhibition of influenza virus NS1 expressed in yeast 9526-6-2 harboring pYES assessed as restoration of yeast growth at 50 uM measured up to 60 hrs.
In the case of `COc1cc(-c2ccnc3c2c(C)nn3-c2cccc(C(F)(F)F)c2)ccc1O`, the inhibition entry is “Active”. For the compound `COc1cc(-c2c(C#N)c(N)nc3c2c(C)nn3-c2ccc(F)cc2)ccc1O`, the inhibition entry is “Active”. In the case of `COc1cc(-c2ccnc3c2c(C)nn3-c2ccc(C(F)(F)F)cc2)ccc1O` it was “Active”. As to `Cc1nn(-c2ccc(Cl)cc2)c2nc(N)c(C#N)c(-c3ccc(O)c(O)c3)c12`, the inhibition result is “Active”. Regarding `Cc1ccc(-n2nc(C)c3c(-c4ccc(O)c(O)c4)c(C#N)c(N)nc32)cc1C`, the inhibition result is “Active”.
